Laboratory results reported in PMC11123948, “Leucoverdazyls as Novel Potent Inhibitors of Enterovirus Replication” (Pathogens, 2024).

Experiments:
Coxsackie B3 virus = type: cell-based, Coxsackievirus B3 (CVB3, strain Nancy); settings: ratio CC50/IC50, Coxsackie B3 virus, Vero cells
CVA16 = assay: Viral yield reduction assay, CVA16; type: cell-based, Coxsackievirus A16 (clinical isolate); settings: ratio CC50/IC50, CVA16, RD cells
CVB5 = assay: Viral yield reduction assay, CVB5; type: cell-based, Coxsackievirus B5 (clinical isolate); settings: ratio CC50/IC50, CVB5, Vero cells
ECHO30 = assay: Viral yield reduction assay, ECHO30; type: cell-based, ECHO30 (clinical isolate); settings: ratio CC50/IC50, ECHO30, RD cells
CVA24 = assay: Viral yield reduction assay, CVA24; type: cell-based, Coxsackievirus A24 (clinical isolate); settings: ratio CC50/IC50, CVA24, RD cells
CVB4 (strain Powers) = assay: Viral yield reduction assay, CVB4; type: cell-based, Coxsackievirus B4 (CVB4; settings: ratio CC50/IC50, CVB4 (strain Powers), Vero cells

## c1ccc(C2=NN(c3nc4ccccc4s3)CN(c3ccccc3)N2)cc1 [Compound 1a]
Coxsackie B3 virus
  SI: 230
CVA16
  SI: 841
CVB5
  SI: 413
ECHO30
  SI: 420
CVA24
  SI: 747
CVB4 (strain Powers)
  SI: 364

## COc1ccc(N2CN(c3nc4ccccc4s3)N=C(c3ccccc3)N2)cc1 [Compound 1b]
Coxsackie B3 virus
  SI: >250

## Clc1ccc(N2CN(c3nc4ccccc4s3)N=C(c3ccccc3)N2)cc1 [Compound 1c]
Coxsackie B3 virus
  SI: 43

## Brc1ccc(N2CN(c3nc4ccccc4s3)N=C(c3ccccc3)N2)cc1 [Compound 1d]
Coxsackie B3 virus
  SI: 142

## CC1N(c2nc3ccccc3s2)N=C(c2ccccc2)NN1c1ccccc1 (stereo not drawn) [Compound 2a]
Coxsackie B3 virus
  SI: >50

## COc1ccc(N2NC(c3ccccc3)=NN(c3nc4ccccc4s3)C2C)cc1 (stereo not drawn) [Compound 2b]
Coxsackie B3 virus
  SI: 85

## CCc1ccc(N2NC(c3ccccc3)=NN(c3nc4ccccc4s3)C2C)cc1 (stereo not drawn) [Compound 2c]
Coxsackie B3 virus
  SI: >2

## CC1N(c2nc3ccccc3s2)N=C(c2ccccc2)NN1c1ccc(F)cc1 (stereo not drawn) [Compound 2d]
Coxsackie B3 virus
  SI: <1

## CC1N(c2nc3ccccc3s2)N=C(c2ccccc2)NN1c1ccc(Br)cc1 (stereo not drawn) [Compound 2e]
Coxsackie B3 virus
  SI: <1

## CCC1N(c2nc3ccccc3s2)N=C(c2ccccc2)NN1c1ccccc1 (stereo not drawn) [Compound 3a]
Coxsackie B3 virus
  SI: >2

## CCC1N(c2nc3ccccc3s2)N=C(c2ccccc2)NN1c1ccc(OC)cc1 (stereo not drawn) [Compound 3b]
Coxsackie B3 virus
  SI: >38

## CCC1N(c2nc3ccccc3s2)N=C(c2ccccc2)NN1c1ccc(F)cc1 (stereo not drawn) [Compound 3c]
Coxsackie B3 virus
  SI: 5

## C=CC1N(c2nc3ccccc3s2)N=C(c2ccccc2)NN1c1ccccc1 (stereo not drawn) [Compound 4a]
Coxsackie B3 virus
  SI: >2

## C=CC1N(c2nc3ccccc3s2)N=C(c2ccccc2)NN1c1ccc(OC)cc1 (stereo not drawn) [Compound 4b]
Coxsackie B3 virus
  SI: >2

## C=CC1N(c2nc3ccccc3s2)N=C(c2ccccc2)NN1c1ccc(Cl)cc1 (stereo not drawn) [Compound 4c]
Coxsackie B3 virus
  SI: 10

## C=CC1N(c2nc3ccccc3s2)N=C(c2ccccc2)NN1c1ccc(I)cc1 (stereo not drawn) [Compound 4d]
Coxsackie B3 virus
  SI: 29

## Cl.N=C(N)N [Guanidine hydrochloride, reference compound]
CVA16
  SI: >31
CVB5
  SI: >10
ECHO30
  SI: >83
CVA24
  SI: >33
CVB4 (strain Powers)
  SI: >10

## Cc1cc(CCCOc2c(C)cc(-c3noc(C(F)(F)F)n3)cc2C)on1 [Pleconaril, reference compound]
Coxsackie B3 virus
  SI: 43
